Assay results from PMC9678781.

Target: SARS-CoV-2 RBD-SD1 (aa 319-591), 8xHis-tagged (SARS-CoV-2) (UniProt P0DTC2)
Assay: FACS

CR3022-scFv
Kd: 33 nM
